This assay deals with Kgp in P. gingivalis W83 bacteria (Porphyromonas gingivalis (Bacteroides gingivalis), UniProt Q51817). Kind of assay: Bacterial smear staining with gingipain activity probes. The class given is cell-based. The note with it: 1 μM probe, 1 hr, 37° C.; no signal in Kgp knockout.

The chains behind the UniProt entries cited, without tags or fusion partners. Residues count along the entry.
UniProt Q51817, 229-737 limits assumed: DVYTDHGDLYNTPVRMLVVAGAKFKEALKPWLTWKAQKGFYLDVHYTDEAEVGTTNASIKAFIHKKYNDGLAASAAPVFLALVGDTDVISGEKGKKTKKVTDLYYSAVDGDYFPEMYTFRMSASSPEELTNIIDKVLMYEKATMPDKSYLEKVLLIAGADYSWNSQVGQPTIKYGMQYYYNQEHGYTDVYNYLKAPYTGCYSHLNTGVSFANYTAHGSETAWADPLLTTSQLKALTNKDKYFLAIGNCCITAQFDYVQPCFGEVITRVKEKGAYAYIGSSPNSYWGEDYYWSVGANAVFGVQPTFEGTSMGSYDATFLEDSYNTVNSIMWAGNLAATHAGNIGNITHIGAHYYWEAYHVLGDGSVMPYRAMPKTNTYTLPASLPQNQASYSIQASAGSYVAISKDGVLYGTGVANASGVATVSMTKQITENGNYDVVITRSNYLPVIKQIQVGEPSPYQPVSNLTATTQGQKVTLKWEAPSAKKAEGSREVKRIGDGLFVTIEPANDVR

In the case of `CC1=CC(C)=[N+]2C1=Cc1ccc(CCC(=O)NCc3cn(-c4cccc(C(=O)NC(CCCCN)C(=O)COc5c(F)cc(CNC(=O)c6ccc(/N=N/c7ccc(N(C)C)cc7)cc6)cc5F)c4)nn3)n1[B-]2(F)F` (stereo not shown), the “fluorescence of W83 bacteria after exposure to probe” value is given as “fluorescent”.

These data come from patent publication US10730826B2, “Ketone inhibitors of lysine gingipain” (CORTEXYME, INC., priority 2016, dated 2020).
